Anti-infective test results gathered from many reports (values: NIAID ChemDB through PubChem).

All rows: growth or infection tests; species: HIV-1; measure: inhibition

Inhibition is in % at the dose shown (toxicity tests: loss of growth or viability). Conditions beyond the fields shown may differ between rows. Two numbers with a dash give a range or band. Blank or dashed fields: not listed here.

| smiles | dose | cells | strain | mutations | read by | result |
|---|---|---|---|---|---|---|
| Nc1ccn([C@H]2C=C[C@@H](CO)O2)c(=O)n1 | 2 µM | MT-4 | IIIB | - | antigen | 98% |
| Cc1ccc(C)c2c1NC(=O)C2CC(=O)N[C@@H](Cc1ccccc1)C(=O)N(C)c1cccc(F)c1 | 20 µM | - | NL4-3 | - | fluorescence | 70% |
| CCCOC(=O)N1C=CC(C#N)C(C(C)=O)=C1 | 50 µM | MOLT-3 | IIIB | - | syncytia | 0% |
| O=C(NCCc1ccccc1)Nc1nc2ccccc2s1 | 0.1 µg/mL | MT-4 | - | - | cytopathic effect / XTT | 0% |
| N#CC1C=Cc2c(ccc3ccccc23)N1C(=O)c1ccco1 | 50 µM | MOLT-3 | IIIB | - | syncytia | 53.5% |
| N=C1Sc2ccccc2C2=NCCCN12 | 1.62 µM | PBMC | 96USNG31 | - | MTS | 90% |
| Nc1nc(Cl)c2ncn([C@@H]3O[C@H](CO)C[C@@H]3F)c2n1 | 10 µM | ATH-8 + ATH8 | LAI | - | cytopathic effect / XTT | 33% |
| O=C(O)C(O)c1ccccc1 | 100 µg/mL | U87 (CD4+ CXCR4+) + U87 | IIIB | - | p24 | 97% |
| CC1(c2nc3ccccc3[nH]2)CCC(C(N)=O)C(C)(C)O1 | 0.063 µM | CEM + CEM-SS | RF | - | - | 2.3% |
| O=C(O)C1=C[C@@H](OC(=O)c2cc(O)c(O)c(O)c2)[C@@H](OC(=O)c2cc(O)c(O)c(O)c2)[C@H](OC(=O)c2cc(O)c(O)c(O)c2)C1 | 5 µg/mL | H9 | IIIB | - | p24 | 60% |
| Nc1cc(S(=O)(=O)O)c2ccccc2c1N | 10 µg/mL | MOLT-3 | - | - | syncytia | 62% |
| CCc1cccc2c(C(=O)C(=O)N3CCN(C(=O)c4ccccc4)C[C@@H]3C)c[nH]c12 | 10 µM | HeLa + HELA CD4+/CCR5 | - | - | luciferase | 72% |
| CCOC(=O)/C=C/c1ccc(OC(=O)CCC(=O)Oc2c(C)c(C)c3c(c2C)CC[C@@](C)(CCC[C@H](C)CCC[C@H](C)CCCC(C)C)O3)cc1 | 5 µM | Macrophage + Monocytes/macrophages | BaL | - | - | 40% |
| O=C(O)C[C@@H]1C(=O)O[C@H]2[C@@H]3OC(=O)c4cc(O)c(O)c(O)c4-c4c(cc(O)c(O)c4O)C(=O)OC[C@H]2O[C@@H](OC(=O)c2cc(O)c(O)c(O)c2)[C@@H]3OC(=O)c2cc(O)c(O)c3c2[C@H]1[C@H](O)C(=O)O3 | 20 µg/mL | H9 | IIIB | - | p24 | 90% |
| CC(=O)NC1C=CN(c2cn(C(O)CP(=O)(O)O)nn2)C(=O)N1 | 100 µM | CEM | IIIB | - | - | 0% |
| O=c1c(-c2nnc(SCc3ccc(F)cc3)o2)c[nH]c2c(-c3ccccc3)cccc12 | 100 µM | HeLa | NL4-3 | - | p24 / ELISA | 52% |
| N=C1Sc2ccccc2C2=NCCCN12 | 1.89 µM | PBMC | 92UG001 | - | β-galactosidase | 90% |
| CN(C[C@@H](CCN1CCC2(CC1)CS(=O)c1ccccc12)c1ccc(Cl)c(Cl)c1)S(=O)(=O)c1ccc(-c2ccccn2)s1 | 12.5 µM | PBMC | YU2 | - | - | <95% |
| Nc1ncnc2c1ncn2[C@@H]1O[C@H](CO)[C@@H]1O | 10 µg/mL | MT-4 | - | - | antigen | 99.9% |
| CC(=O)NC1C=CN(c2cn(C(O)CCCP(=O)(O)O)nn2)C(=O)N1 | 100 µM | CEM | IIIB | - | - | 0% |
| O=C(O)c1cn(Cc2ccccc2)c2c(ccc3ccccc32)c1=O | 100 µM | HeLa | NL4-3 | - | p24 / ELISA | <10% |
| CCN(C(=O)[C@H](Cc1ccccc1)NC(=O)Cc1cccc2ccccc12)c1ccccc1 | 20 µM | - | NL4-3 | - | fluorescence | 98% |
| CC(=O)N[C@@H](Cc1c[nH]c2ccccc12)C(=O)N[C@H](C(=O)N[C@@H](Cc1ccccc1)[C@H](O)[C@@H](O)[C@@H]1CCCN1C(=O)[C@@H](NC(=O)[C@H](Cc1c[nH]c2ccccc12)NC(C)=O)C(C)C)C(C)C | 0.01 µM | MT-2 | IIIB | - | MTT | <10% |
| Cc1ccc(C)c2c1NC(=O)C2CC(=O)N[C@@H](Cc1ccccc1)C(=O)N(C)c1ccccc1 | 20 µM | - | NL4-3 | - | fluorescence | 72% |
| C[C@H](CCC(=O)N[C@@H](Cc1cc(I)c(O)cc1I)C(=O)O)[C@H]1CC[C@H]2[C@@H]3[C@H](O)CC4C[C@H](O)CC[C@]4(C)[C@H]3CC[C@]12C | 0.001 µg/mL | H9 | IIIB | - | syncytia | 67.4% |
| O=C1OCC2OC(O)C(O)C(O)C2OC(=O)c2cc(O)c(O)c(O)c2-c2c(O)c(O)c3oc(=O)c4c(c(O)c(O)c5oc(=O)c2c3c54)-c2c1cc(O)c(O)c2O | 1 µg/mL | H9 | IIIB | - | p24 | 30% |
| CCOP(=O)(CCCn1cc(C2N=C3C(N)=NC=NC3N2C)nn1)OCC | 100 µM | CEM | IIIB | - | - | 0% |
| [N-]=[N+]=NC[C@H]1[C@H](n2cnc3c(N)ncnc32)O[C@@H]1CO | 10 µg/mL | MT-4 | - | - | antigen | 90% |
| Cc1ccccc1CSc1nnc(-c2c[nH]c3c(-c4ccccc4)cccc3c2=O)o1 | 100 µM | HeLa | NL4-3 | - | p24 / ELISA | 57% |
| N#Cc1cc(Cl)cc(Oc2c(Cl)ccc3c2nnn3Cc2[nH]nc3ncccc23)c1 | 0.0043 µM | MT-4 | - | - | - | >95% |
| O=C(C(=O)N1CCN(C(=O)c2ccc(Cl)o2)CC1)c1c[nH]c2cccc(F)c12 | 10 µM | HeLa + HELA CD4+/CCR5 | - | - | luciferase | >98% |
| C=CCOC(=O)N1C=CC(C#N)C(C(C)=O)=C1 | 50 µM | MOLT-3 | IIIB | - | syncytia | 0% |
| N#Cc1cc(Cl)cc(Oc2c(Cl)ccc3c2nnn3Cc2[nH]nc3nc(N)ccc23)c1 | 0.003 µM | MT-4 | - | - | - | >95% |
| O=C(NCCc1ccccc1)Nc1nc2c(Cl)cccc2s1 | 100 µg/mL | MT-4 | - | - | cytopathic effect / XTT | 100% |
| O=c1c(-c2nnc(SCc3ccccc3Cl)o2)c[nH]c2c(-c3ccccc3)cccc12 | 100 µM | HeLa | NL4-3 | - | p24 / ELISA | 25% |
| Nc1ccn([C@H]2CC[C@@H](CO)O2)c(=O)n1 | 1 µM | MT-2 | LAV | - | cytopathic effect / trypan blue | 99% |
| O=C(NCCc1ccccc1)Nc1nncs1 | 10 µg/mL | MT-4 | - | - | cytopathic effect / XTT | 100% |
| O=C(O)c1cn(Cc2ccc(F)cc2)c2c(ccc3ccccc32)c1=O | 100 µM | HeLa | NL4-3 | - | p24 / ELISA | 23% |
| Nc1nc2c(ncn2[C@@H]2O[C@H](CO)C[C@@H]2F)c(=O)[nH]1 | 2 µM | ATH-8 + ATH8 | LAI | - | cytopathic effect / XTT | 25% |
| Cc1ccc(-c2ccc3c(c2)C=C(C(=O)Nc2ccc(C[N+](C)(C)C4CCOCC4)cc2)CCC3)cc1 | 1 µM | PBMC | TB1 CLADE C | - | p24 | 97.6% |
| O=C(O)c1c[nH]c2c(ccc3ccccc32)c1=O | 100 µM | HeLa | NL4-3 | - | p24 / ELISA | 71% |
| Cc1cccc2c(C(=O)C(=O)N3CCN(C(=O)c4ccccn4)C[C@H]3C)c[nH]c12 | 10 µM | HeLa + HELA CD4+/CCR5 | - | - | luciferase | >98% |
| CC12CCC(C(=O)n3c1nc1ccccc13)C(C)(C)O2 | 200 µM | CEM + CEM-SS | RF | - | - | 16.3% |
| O=C1[C@@H](Cc2ccccc2)NC(=S)N1Cc1ccccc1 | 1 µg/mL | MT-4 | - | - | cytopathic effect / XTT | 0–4% |
| N#CC1C=Cc2c(ccc3ccccc23)N1C(=O)Oc1ccccc1 | 50 µM | MOLT-3 | IIIB | - | syncytia | 0% |
| O=c1c(-c2nnc(SCc3ccccc3)o2)c[nH]c2c(-c3ccccc3)cccc12 | 100 µM | HeLa | NL4-3 | - | p24 / ELISA | 20% |
| O=c1[nH]cnc2c1ncn2[C@H]1C[C@@H](CO)O1 | 100 µg/mL | MT-4 | - | - | antigen | >99.9% |
| N#Cc1csc(NC(=O)NCCc2ccccc2)n1 | 10 µg/mL | MT-4 | - | - | RT activity | 98% |
| CN(C(=O)[C@H](Cc1ccccc1)NC(=O)Cc1cccc2ccccc12)c1ccccc1 | 20 µM | - | NL4-3 | - | fluorescence | 100% |
| O=C1O[C@@H]2[C@@H](OC(=O)c3cc(O)c(O)c(O)c3-c3c1cc(O)c(O)c3O)[C@@H](O)O[C@@H]1COC(=O)c3cc(O)c(O)c(O)c3-c3c(O)c(O)c4oc(=O)c5c(c(O)c(O)c6oc(=O)c3c4c65)-c3c(cc(O)c(O)c3O)C(=O)O[C@@H]21 | 5 µg/mL | H9 | IIIB | - | p24 | 57% |
| Cc1ccc(C)c2c1NC(=O)C2CC(=O)N[C@@H](Cc1ccccc1)C(=O)N(C)c1ccc(Cl)cc1 | 20 µM | - | NL4-3 | - | fluorescence | 98% |
| CCCCC(=O)OC[C@H]1O[C@@H](n2cnc3c(N)ncnc32)[C@@H]1CO | 10 µg/mL | MT-4 | - | - | antigen | 97% |
| C[C@H]1CN(C(=O)c2ccccc2)CCN1C(=O)C(=O)c1c[nH]c2cc(Cl)ccc12 | 10 µM | HeLa + HELA CD4+/CCR5 | - | - | luciferase | >98% |
| O=C(O)c1c[nH]c2ccccc2c1=O | 100 µM | HeLa | NL4-3 | - | p24 / ELISA | <10% |
| Cc1ccc(CSc2nnc(-c3c[nH]c4c(-c5ccccc5)cccc4c3=O)o2)cc1 | 100 µM | HeLa | NL4-3 | - | p24 / ELISA | 49% |
| COc1ccc(F)c2c(C(=O)C(=O)N3CCN(C(=O)c4ccccc4)CC3)c[nH]c12 | 10 µM | HeLa + HELA CD4+/CCR5 | - | - | luciferase | >98% |
| O=C(NCCc1ccccc1)NCc1ccoc1 | 10 µg/mL | MT-4 | - | - | cytopathic effect / XTT | 7% |
| O=C(O)c1cn(Cc2ccccc2F)c2c(ccc3ccccc32)c1=O | 100 µM | HeLa | NL4-3 | - | p24 / ELISA | <10% |
| N#Cc1cc(Cl)cc(Oc2c(Cl)ccc3c2ncn3Cc2[nH]nc3ncccc23)c1 | 0.32 µM | MT-4 | - | Y181C | - | >95% |
| O=C(C(=O)N1CCN(C(=O)c2ncc[nH]2)CC1)c1c[nH]c2cccc(F)c12 | 10 µM | HeLa + HELA CD4+/CCR5 | - | - | luciferase | 71% |
| Nc1ncnc2c1ncn2[C@@H]1O[C@H](COP(=O)(O)O[C@@H]2[C@H](O)[C@@H](COP(=O)(O)O[C@@H]3[C@H](O)[C@@H](CO)O[C@H]3n3cnc4c(N)ncnc43)O[C@H]2n2cnc3c(N)ncnc32)[C@@H](O)[C@H]1O | 300 µM | PBL | IIIB | - | syncytia | 3% |
| CN1C(=O)[C@@H](Cc2ccccc2)NC1=S | 100 µg/mL | MT-4 | - | - | cytopathic effect / XTT | 100% |
| CCOP(=O)(OCC)C(O)Cn1cc(Cn2cnc3c(N)ncnc32)nn1 | 100 µM | CEM | IIIB | - | - | 0% |
| Nc1ncnc2c1ncn2[C@@H]1O[C@H](CO)[C@H]1N | 100 µg/mL | MT-4 | - | - | antigen | >99.9% |
| CC(=O)N1CCC(C(=O)N(CCCN2CCC(Cc3ccc(C(N)=O)cc3)CC2)c2ccc(C)c(Cl)c2)CC1 | 0.004 µM | PBMC | HHA Clinical isolates | - | p24 | 90% |
| CCOP(=O)(CC(O)n1cc(C2N=C3C(N)=NC=NC3N2C)nn1)OCC | 100 µM | - | IIIB | - | - | 0% |
| CC1(c2nc3cc(Cl)c(Cl)cc3[nH]2)CCC(C(=O)O)C(C)(C)O1 | 20 µM | CEM + CEM-SS | RF | - | - | 0.9% |
| CC(=O)N1C(=O)[C@@H](Cc2ccc(Cl)cc2)NC1=S | 1 µg/mL | MT-4 | - | - | cytopathic effect / XTT | 5% |
| O=C(O)C[C@H]1C(=O)O[C@H]2[C@H](OC(=O)c3cc(O)c(O)c(O)c3)[C@@H](OC(=O)c3cc(O)c(O)c4c3[C@H]1[C@H](O)C(=O)O4)[C@H](OC(=O)c1cc(O)c(O)c(O)c1)O[C@@H]2COC(=O)c1cc(O)c(O)c(O)c1 | 1 µg/mL | H9 | IIIB | - | p24 | 50% |
| O=C(C(=O)N1CCN(C(=O)c2ccccc2)CC1)c1c[nH]c2cc(F)cc(F)c12 | 10 µM | HeLa + HELA CD4+/CCR5 | - | - | luciferase | >98% |
| Cc1ccc(N(C)C(=O)[C@H](Cc2ccccc2)NC(=O)Cc2ccc3ccccc3c2)cc1 | 20 µM | - | NL4-3 | - | fluorescence | 99% |
| CC1=C[C@H](n2cc(C)c(=O)[nH]c2=O)O[C@@H]1CO | 500 µg/mL | MT-4 | - | - | cytopathic effect | 0% |

The last 8 rows once more:

smiles	dose	cells	strain	mutations	read by	result
CC(=O)N1CCC(C(=O)N(CCCN2CCC(Cc3ccc(C(N)=O)cc3)CC2)c2ccc(C)c(Cl)c2)CC1	0.004 µM	PBMC	HHA Clinical isolates	-	p24	90%
CCOP(=O)(CC(O)n1cc(C2N=C3C(N)=NC=NC3N2C)nn1)OCC	100 µM	-	IIIB	-	-	0%
CC1(c2nc3cc(Cl)c(Cl)cc3[nH]2)CCC(C(=O)O)C(C)(C)O1	20 µM	CEM + CEM-SS	RF	-	-	0.9%
CC(=O)N1C(=O)[C@@H](Cc2ccc(Cl)cc2)NC1=S	1 µg/mL	MT-4	-	-	cytopathic effect / XTT	5%
O=C(O)C[C@H]1C(=O)O[C@H]2[C@H](OC(=O)c3cc(O)c(O)c(O)c3)[C@@H](OC(=O)c3cc(O)c(O)c4c3[C@H]1[C@H](O)C(=O)O4)[C@H](OC(=O)c1cc(O)c(O)c(O)c1)O[C@@H]2COC(=O)c1cc(O)c(O)c(O)c1	1 µg/mL	H9	IIIB	-	p24	50%
O=C(C(=O)N1CCN(C(=O)c2ccccc2)CC1)c1c[nH]c2cc(F)cc(F)c12	10 µM	HeLa + HELA CD4+/CCR5	-	-	luciferase	>98%
Cc1ccc(N(C)C(=O)[C@H](Cc2ccccc2)NC(=O)Cc2ccc3ccccc3c2)cc1	20 µM	-	NL4-3	-	fluorescence	99%
CC1=C[C@H](n2cc(C)c(=O)[nH]c2=O)O[C@@H]1CO	500 µg/mL	MT-4	-	-	cytopathic effect	0%